Measured values from several laboratories, pooled; numbers as filed in NIAID ChemDB.

All rows: whole-cell or culture tests; species: HIV-2; cells: MT-4; read-out: EC50

Neighbouring rows are from separate reports. ECn: concentration that inhibits the pathogen or its effect by n%. Blank or dashed fields: not listed here.

structure | strain | read by | value
Oc1ccccc1/C=N/Nc1nc(-c2ccc(Br)cc2)cs1 | ROD | MTT | >48.7 µM
Nc1nc2c(ncn2C[C@H](CF)OCP(=O)(O)O)c(=O)[nH]1 | LAV-2 | cytopathic effect | 5.7 µM
COC(=O)C1CCCN1C(=O)CCCN1C(=O)c2ccccc2C1=O | ROD | MTT | >101.9 µM
C[C@H](Cn1cnc2c(N)nc(N)nc21)OCP(=O)(O)O | LAV-2 | cytopathic effect | 0.179 µM
COC(=O)C(CC(C)C)NC(=O)CCCN1C(=O)c2ccccc2C1=O | ROD | MTT | >10.89 µM
COc1ncnc(NS(=O)(=O)c2ccc(N=C3C(=O)N(CN4CCOCC4)c4ccc(C)cc43)cc2)c1OC | ROD | cytopathic effect / MTT | >9.3 µg/mL
Nc1nc(Sc2ccccc2)c([N+](=O)[O-])c(=O)[nH]1 | ROD | - | >88.07 µg/mL
CCCOC12CS(=O)(=O)OC13[C@@H](CN2)O[C@@H](n1cc(C)c(=O)[nH]c1=O)[C@@H]3O | ROD | - | >250 µM
COc1cccc(Nn2c(-c3ccccc3)c(C)[nH]c2=S)c1 | ROD | cytopathic effect / MTT | >12.3 µg/mL
CCCn1c(Sc2ccccc2)c([N+](=O)[O-])c(=O)[nH]c1=O | ROD | - | >72.9 µg/mL
COC(=O)C(NC(=O)CCCN1C(=O)c2ccccc2C1=O)C(C)O | ROD | MTT | >37.82 µM
CCCn1c(Sc2ccccc2)c(N)c(=O)[nH]c1=O | ROD | - | >44.3 µg/mL
Cc1cc(C#N)cc(C)c1Oc1nc(Nc2ccc(C#N)cc2)ncc1SCC(=O)NCc1ccc(O)cc1 | ROD | MTT | >21.7 µM
C[C@@H](Cn1cnc2c(N)nc(N)nc21)OCP(=O)(O)O | LAV-2 | cytopathic effect | 7.9 µM
CC(C)(C)[Si](C)(C)OC[C@H]1O[C@@H](n2ccc(=O)[nH]c2=O)[C@H](O[Si](C)(C)C(C)(C)C)C1(O)[C@H](N=[N+]=[N-])C(N)=O | ROD | cytopathic effect / trypan blue | >10 µM
C#CCNC(=O)CSc1cnc(Nc2ccc(C#N)cc2)nc1Oc1c(C)cc(C#N)cc1C | ROD | MTT | >23.5 µM
Cc1cn([C@@H]2O[C@H](C(CO[Si](C)(C)C(C)(C)C)O[Si](C)(C)C(C)(C)C)C3(OS(=O)(=O)C=C3N)[C@H]2O[Si](C)(C)C(C)(C)C)c(=O)[nH]c1=O | ROD | cytopathic effect | >136 µM
CCN(CC)CN1C(=O)C(=Nc2ccc(S(=O)(=O)Nc3ncnc(OC)c3OC)cc2)c2ccccc21 | ROD | cytopathic effect / MTT | >86 µg/mL
COC(=O)C(NC(=O)CCCN1C(=O)c2ccccc2C1=O)C(C)C | ROD | MTT | >125 µM
COc1ccccc1CCNC(=S)NC(=O)c1csc(-c2ccccc2)n1 | ROD | MTT | 2.93 µM
C(=N\Nc1nc(-c2ccccc2)cs1)/c1cccnc1 | ROD | MTT | >11.6 µM
COC(=O)[C@H](C)NP(=O)(OC[C@@H]1C=C[C@H](n2cc(C)c(=O)[nH]c2=O)O1)Oc1ccccc1 | ROD | cytopathic effect / MTT | 0.067 µM
N#Cc1ccc(-c2csc(N/N=C/c3ccc([N+](=O)[O-])cc3)n2)cc1 | ROD | MTT | >10.55 µM
Cc1cn([C@@H]2O[C@@H]3CN[C@H]4CS(=O)(=O)O[C@]43[C@H]2O[Si](C)(C)C(C)(C)C)c(=O)[nH]c1=O | ROD | - | >125 µM
COc1ncnc(NS(=O)(=O)c2ccc(N=C3C(=O)N(CN4CCCCC4)c4ccc(C)cc43)cc2)c1OC | ROD | cytopathic effect / MTT | >12.6 µg/mL
Clc1ccccc1-c1nc(-c2nnc(C34CCC5CC(CC3C5)C4)o2)cs1 | ROD | MTT | >125 µM
Oc1ccccc1/C=N/Nc1nc(-c2ccc(Cl)cc2)cs1 | ROD | MTT | >102 µM
Cn1c(Sc2ccncc2)c([N+](=O)[O-])c(=O)n(C)c1=O | ROD | - | 2.54 µg/mL
CCO[C@]12CS(=O)(=O)O[C@@]13[C@@H](CN2)O[C@@H](n1ccc(=O)[nH]c1=O)[C@@H]3O[Si](C)(C)C(C)(C)C | ROD | - | >50 µM
Cc1cn([C@@H]2O[C@H](COS(=O)(=O)c3ccccc3)C3(OS(=O)(=O)C=C3N)[C@H]2O[Si](C)(C)C(C)(C)C)c(=O)n(C)c1=O | - | - | ≥30 µM
C(=N\Nc1nc(-c2ccccc2)cs1)/c1ccco1 | ROD | MTT | >11.3 µM
Nn1cc(C(=O)O)c(=O)c2ccc(N3CCN(c4nc5ccccc5s4)CC3)cc21 | ROD | MTT | 2.84 µM
CC(O)C(NC(=S)NC(=O)CCCN1C(=O)c2ccccc2C1=O)C(=O)O | ROD | MTT | >28.54 µM
C=CCOC[C@H]1O[C@@H](n2cc(C)c(=O)n(C)c2=O)[C@H](O[Si](C)(C)C(C)(C)C)C12OS(=O)(=O)C=C2N | - | - | >50 µM
Nc1ncc2ncn(C[C@@H](CF)OCP(=O)(O)O)c2n1 | LAV-2 | cytopathic effect | >300 µM
O=C(Cl)CCCN1C(=O)c2ccccc2C1=O | ROD | MTT | >52.8 µM
C/C(=N\Nc1nc(-c2ccc(Br)cc2)cs1)c1ccc(Cl)c(Cl)c1 | ROD | MTT | >13.05 µM
Cc1cn([C@@H]2O[C@H](C(COC(=O)c3ccccc3)OC(=O)c3ccccc3)C3(OS(=O)(=O)C=C3N)[C@H]2O[Si](C)(C)C(C)(C)C)c(=O)[nH]c1=O | ROD | cytopathic effect | >5.6 µM
Cc1cc(C#N)cc(C)c1Oc1nc(Nc2ccc(C#N)cc2)ncc1SCC(=O)NC1CC1 | ROD | MTT | >30.7 µM
Cc1cc(C#N)cc(C)c1Oc1nc(NC2CCN(S(=O)(=O)c3ccc4oc(=O)ccc4c3)CC2)nc2ccsc12 | ROD | MTT | >56.92 µM
Cc1cn([C@@H]2O[C@H](CN3CCNCC3)C3(OS(=O)(=O)C=C3N)[C@H]2O[Si](C)(C)C(C)(C)C)c(=O)n(C)c1=O | - | - | 37.3 µM
CC(=O)Nc1ccc(S(=O)(=O)Nc2ccc(Nc3nc(Oc4c(C)cc(C#N)cc4C)c4sccc4n3)cc2)cc1 | ROD | MTT | >12.7 µM
COc1ncnc(NS(=O)(=O)c2ccc(N=C3C(=O)N(CN(C)C)c4ccccc43)cc2)c1OC | ROD | cytopathic effect / MTT | >2 µg/mL
CC(C)(C)[Si](C)(C)OC[C@H]1O[C@@H](n2ccc(=O)[nH]c2=O)[C@H](O[Si](C)(C)C(C)(C)C)[C@]12O[C@@H]2CO | ROD | cytopathic effect / trypan blue | >10 µM
Cc1cc(C#N)cc(C)c1Oc1nc(NC2CCN(S(=O)(=O)c3ccc4ccccc4c3)CC2)nc2ccsc12 | ROD | MTT | >219.4 µM
O=c1c([N+](=O)[O-])c(Sc2ccccc2)nc2[nH]c(-c3ccccc3)cn12 | ROD | - | >2.56 µg/mL
CC(C)(C)[Si](C)(C)OC[C@H]1O[C@@H](n2ccc(=O)[nH]c2=O)[C@H](O[Si](C)(C)C(C)(C)C)C1(O)C(Cl)C(N)=O | ROD | cytopathic effect / trypan blue | >2 µM
Cc1ccc(-c2nc(-c3nnc(C45CCC6CC(CC4C6)C5)o3)cs2)cc1 | ROD | MTT | >105.7 µM
Cc1cn([C@@H]2O[C@@H]3CN[C@@]4(OCC5CCOC5)CS(=O)(=O)O[C@@]34[C@H]2O[Si](C)(C)C(C)(C)C)c(=O)[nH]c1=O | ROD | - | >10 µM
COCCNC(=O)CSc1cnc(Nc2ccc(C#N)cc2)nc1Oc1c(C)cc(C#N)cc1C | ROD | MTT | >27.2 µM
C=Cn1cc(C(=O)O)c(=O)c2ccc(N3CCN(c4cccc(C(F)(F)F)c4)CC3)cc21 | ROD | MTT | 0.55 µM
C/C(=N\Nc1nc(-c2ccc(Cl)cc2)cs1)c1ccc(-n2ccnc2)cc1 | ROD | MTT | >92.25 µM
C=Cn1cc(C(=O)O)c(=O)c2ccc(N3CCN(c4ccccn4)CC3)cc21 | ROD | MTT | >0.31 µM
CC(=O)c1ccc(S(=O)(=O)N2CCC(Nc3nc(Oc4c(C)cc(C#N)cc4C)c4sccc4n3)CC2)cc1 | ROD | MTT | >21.98 µM
Clc1ccc(-c2csc(N/N=C/c3ccncc3)n2)cc1 | ROD | MTT | >125 µM
Fc1ccc(-c2nc(-c3nnc(C45CCC6CC(CC4C6)C5)o3)cs2)cc1 | ROD | MTT | >75.2 µM
CC(C)(C)[Si](C)(C)OC[C@H]1O[C@@H](n2ccc(=O)[nH]c2=O)[C@H](O[Si](C)(C)C(C)(C)C)[C@@]12O[C@H]2C(=O)NO | ROD | cytopathic effect / trypan blue | >10 µM
Cn1cc(C(=O)O)c(=O)c2cc(N)c(N3CCN(c4ccccn4)CC3)cc21 | ROD | MTT | >0.25 µM
Cc1cc(C#N)cc(C)c1Oc1nc(NC2CCN(S(=O)(=O)c3ccc(C#N)cc3)CC2)nc2ccsc12 | ROD | MTT | >20.98 µM
Nc1cc2c(=O)c(C(=O)O)csc2cc1N1CCN(c2ccccn2)CC1 | ROD | MTT | >138 µM
Cc1cn([C@@H]2O[C@H](CN3CCN(C)CC3)C3(OS(=O)(=O)C=C3N)[C@H]2O[Si](C)(C)C(C)(C)C)c(=O)n(C)c1=O | - | - | >50 µM
CC(C)=Nn1cc(C(=O)O)c(=O)c2cc(N)c(N3CCN(c4ccccn4)CC3)cc21 | ROD | MTT | >1.11 µM
COC(=O)CCS(=O)(=O)c1cnc(Nc2ccc(C#N)cc2)nc1Oc1c(C)cc(C#N)cc1C | ROD | MTT | >13.6 µM
Nc1cc2c(=O)c(C(=O)O)cn(N)c2cc1N1CCN(c2nc3ccccc3s2)CC1 | ROD | MTT | >0.17 µM
COC(=O)C(Cc1c[nH]c2ccccc12)NC(=O)CCCN1C(=O)c2ccccc2C1=O | ROD | MTT | >29.61 µM
C=CCNC(=O)CSc1cnc(Nc2ccc(C#N)cc2)nc1Oc1c(C)cc(C#N)cc1C | ROD | MTT | >27.8 µM